Anti-infective test results gathered from many reports (values: NIAID ChemDB through PubChem).

Common to all: growth or infection tests; organism: HIV-1; method: luciferase; endpoint: EC50

Blank or dashed fields: not listed here. ECn: concentration that inhibits the pathogen or its effect by n%. Lines come from different laboratories, so protocols vary.

{"structure": "CC(C)OC(=O)OCOP(=O)(CO[C@H](C)Cn1cnc2c(N)ncnc21)OCOC(=O)OC(C)C", "cells": "TZM-bl", "strain or isolate": "BaL", "value": "0.02 µM"}
{"structure": "Cc1cc(C)c2ccccc2c1-n1c(C)nnc1SCC(=O)Nc1ccc(S(N)(=O)=O)cc1Cl", "cells": "HeLa + HeLa-JC53", "strain or isolate": "NL4-3", "mutations": "RT-Y188L", "value": "0.004 µM"}
{"structure": "C[C@H](Cn1cnc2c(N)ncnc21)OCP(=O)(O)O", "cells": "PBMC", "strain or isolate": "NL4-3", "value": "0.49 µM"}
{"structure": "Cc1nnc(SCC(=O)Nc2ccc(S(N)(=O)=O)cc2Cl)n1-c1cc(Br)cc2cccnc12", "cells": "HeLa + HeLa-JC53", "strain or isolate": "NL4-3", "mutations": "RT-Y188L", "value": "0.19 µM"}
{"structure": "Nc1nc2c(ccn2C[C@@H](CF)OCP(=O)(O)O)c(=O)[nH]1", "cells": "PBMC", "strain or isolate": "BaL", "value": ">100 µM"}
{"structure": "CC(=O)N1CCC(C(=O)N(CCCN2CCC(Cc3ccc(C(N)=O)cc3)CC2)c2ccc(C)c(Cl)c2)CC1", "cells": "U87 (CD4+ CCR5+) + U87", "strain or isolate": "R5 subtype B_3 recombinant", "value": "0.0013 µM"}
{"structure": "Cn1c2ccccc2c2c1cc(C#N)c(=O)n2-c1ccc([N+](=O)[O-])cc1", "cells": "HeLa", "strain or isolate": "NRTI resistant", "mutations": "RT-M41L E44D D67N T69D V118I L210W T215Y", "value": "0.019 µM"}
{"structure": "Cc1ccc(NC(=O)CSc2nnc(C)n2-c2c(C)ccc3ccccc23)c(Cl)c1", "cells": "HeLa + HeLa-JC53", "strain or isolate": "NL4-3", "mutations": "RT-Y188L", "value": "0.2 µM"}
{"structure": "Cc1cn([C@H]2C[C@H](N=[N+]=[N-])[C@@H](CO)O2)c(=O)[nH]c1=O", "cells": "TZM-bl", "strain or isolate": "UG070", "value": "0.027 µM"}
{"structure": "CCCCCOC(=O)C[C@H](NP(=O)(CO[C@@H](CF)Cn1ccc2c(=O)[nH]c(N)nc21)Oc1ccccc1)C(=O)OCCCCC", "cells": "PBMC", "strain or isolate": "NL4-3", "value": "4.8 µM"}
{"structure": "Cc1ccc(-n2c(C)nnc2SCC(=O)Nc2ccc(S(N)(=O)=O)cc2Cl)c2ccccc12", "cells": "HeLa + HeLa-JC53", "strain or isolate": "NL4-3", "mutations": "RT-Y188L", "value": "0.02 µM"}
{"structure": "O=C1CCCN1CCCN1CC(=O)N2CC(N(CCOc3ccccc3)S(=O)(=O)c3cccc(F)c3)C[C@H]2C1=O", "cells": "TZM-bl", "strain or isolate": "PLAI-JRFL PID2-28B", "value": ">30 µM"}
{"structure": "CC(C)OC(=O)[C@H](C)N[P@](=O)(CO[C@H](C)Cn1cnc2c(N)ncnc21)Oc1ccccc1", "cells": "TZM-bl", "strain or isolate": "BaL", "value": "0.0033 µM"}
{"structure": "Cc1cn([C@H]2C=C[C@@H](CO)O2)c(=O)[nH]c1=O", "cells": "HeLa", "strain or isolate": "Recombinant", "mutations": "RT-M41L S68N G112S M184V", "value": "0.73 µM"}
{"structure": "Cc1ccc2ccccc2c1-n1c(C)nnc1SCC(=O)Nc1ccccc1Br", "cells": "HeLa + HeLa-JC53", "strain or isolate": "NL4-3", "mutations": "RT-K103N Y181C", "value": "0.065 µM"}
{"structure": "COc1ccc(Sc2nc(N)nc3c2ncn3C[C@@H](CF)OP(=O)(O)O)cc1", "cells": "TZM-bl", "strain or isolate": "BaL", "value": ">100 µM"}
{"structure": "Cc1cc(C#N)cc(C)c1Oc1nc(Nc2ccc(C#N)cc2)nc(N)c1Br", "cells": "HEK293T", "strain or isolate": "MJ4 C (WT)", "value": "0.0012 µM"}
{"structure": "COc1cc(-n2c(C)nnc2SCC(=O)Nc2ccc(S(N)(=O)=O)cc2Cl)c2ncccc2c1", "cells": "HeLa + HeLa-JC53", "strain or isolate": "NL4-3", "mutations": "RT-Y188L", "value": "0.37 µM"}

A second listing of 2 rows from above:

structure | cells | strain or isolate | mutations | value
C[C@H](Cn1cnc2c(N)ncnc21)OCP(=O)(O)O | PBMC | NL4-3 |  | 0.49 µM
CC(=O)N1CCC(C(=O)N(CCCN2CCC(Cc3ccc(C(N)=O)cc3)CC2)c2ccc(C)c(Cl)c2)CC1 | U87 (CD4+ CCR5+) + U87 | R5 subtype B_3 recombinant |  | 0.0013 µM